Pooled drug test results. Numbers come from NIAID ChemDB, via PubChem.

All rows: whole-cell or culture tests; species: HIV-1; cell line: MT-4; endpoint: EC50

Blank or dashed fields: not listed here. ECn is the concentration giving n% inhibition of infection, replication or growth. Conditions beyond the fields shown may differ between rows. Two numbers with a dash give a range or band.

SMILES | strain or isolate | changes | method | result
CCOC(=O)c1nnsc1Nc1ccccc1Nc1snnc1C(=O)OCC | IIIB | - | MTT | 17 µM
C=CCOCn1c(Cc2cc(Cl)cc(Cl)c2)c(CC)c(=O)[nH]c1=O | IIIB | - | cytopathic effect / MTT | 0.03 µM
Cc1cc(C#N)cc(C)c1Oc1nc(Nc2ccc(C#N)cc2)ncc1SCC(=O)NCc1ccc(O)cc1 | - | F227L V106A | MTT | 0.3066 µM
CC(=O)N1CCOCC1Cn1c(=O)c(O)c2n(c1=O)CCN(Cc1ccc(F)cc1)C2=O | - | - | p24 | <10 µM
O=C(OCC1Nc2ccccc2S(=O)(=O)n2cccc21)c1ccc(Cl)cc1 | IIIB | - | MTT | 99 µM
Nc1nc(=O)n([C@H]2C[C@H](F)[C@@H](CO)O2)cc1Br | - | - | cytopathic effect | 5 µM
C#CCOCn1c(Cc2ccccc2)c(CO)c(=O)[nH]c1=O | - | - | MTT | 9 µM
CC(C)c1c(Cc2ccccc2)n(COCCOc2ccccc2)c(=O)[nH]c1=O | A17 | K103N + Y181C | MTT | >35 µM
CCc1c(Cc2cc(Cl)cc(Cl)c2)n(COC/C=C/c2ccccc2)c(=O)[nH]c1=O | NNRTI-resistant (RT Y181C) N119 | RT-Y181C | cytopathic effect / MTT | 3 µM
CCc1c(Oc2cc(C)cc(C)c2)n(Cc2ccncc2)c(=O)[nH]c1=O | - | - | cytopathic effect / MTT | 0.018 µg/mL
Cc1cccc(N2C(=O)CSC2c2c(C(F)(F)F)ccc(Cl)c2F)n1 | IIIB | - | cytopathic effect | 3.02 µM
Cc1cc(C)cc(Oc2c(C(C)C)c(=O)[nH]c(=O)n2Cc2ccncc2)c1 | - | - | cytopathic effect / MTT | 0.01 µg/mL
C[C@H](C[n+]1c[nH]c2c(Nc3ccccc3)nc(N)nc21)OCP(=O)(O)O | IIIB | - | cytopathic effect / MTT | 10.3 ± 1.4 µg/mL
Cc1nc2c(c(C)c(C)n2CC2CC2)c(-c2ccc(Cl)cc2)c1[C@@H](OC(C)(C)C)C(=O)O | IIIB | - | MTT | >100 µM
C=CCNC(=O)CSc1cnc(Nc2ccc(C#N)cc2)nc1Oc1c(C)cc(C#N)cc1C | - | L100I | MTT | 0.023 µM
CCc1c(C(=O)c2cc(F)cc(F)c2)n(Cc2ccncc2)c(=O)[nH]c1=O | - | - | cytopathic effect / MTT | 0.0601 µg/mL
CCc1c(Cc2ccccc2C)n(COCC#Cc2cccc3ccccc23)c(=O)[nH]c1=O | IIIB | EFV-resistant (K103R V179D P225H) | MTT | >34 µM
O=C1/C(=C/c2cc(O)c(O)c(O)c2)CNC/C1=C\c1cc(O)c(O)c(O)c1 | - | - | cytopathic effect / MTT | 22 µM
CCc1c(Cc2cc(Cl)cc(Cl)c2)n(COCC=C(C)C)c(=O)[nH]c1=O | NNRTI-resistant (RT Y181C) N119 | RT-Y181C | cytopathic effect / MTT | >10 µM
CCc1c(Cc2ccccc2)n(COCCOc2ccccc2)c(=O)[nH]c1=O | IIIB | Efavirenz-resistant (K103R + V179D + P225H) | MTT | >32 µM
C[C@H](Cn1cnc2c(N(C)C)ncnc21)OCP(=O)(O)O | IIIB | - | cytopathic effect / MTT | 0.4 ± 0.01 µg/mL
Cc1cc(C)cc(Cc2c(C(C)C)c(=O)[nH]c(=O)n2COCCOc2ccccc2)c1 | N119 | Y181C | MTT | 1.85 µM
O=C(OCc1ccccc1)N(Cc1ccccc1)CC(O)C(Sc1ccccc1)N(Cc1ccccc1)C(=O)OCc1ccccc1 | LAV | - | syncytia | 10 µM
O=C(COCC1Nc2ccccc2S(=O)(=O)n2cccc21)c1ccc(Cl)cc1 | IIIB | - | MTT | 72 µM
Cc1nc2c(c(C)c(C)n2Cc2cccnc2F)c(-c2ccc(Cl)cc2)c1[C@H](OC(C)(C)C)C(=O)O | IIIB | - | MTT | 0.00549 µM
C=C(C)COCn1c(Cc2cc(Cl)cc(Cl)c2)c(CC)c(=O)[nH]c1=O | NNRTI-resistant (RT Y181C) N119 | RT-Y181C | cytopathic effect / MTT | >10 µM
CCOCn1c(Cc2cc(OC)cc(OC)c2)c(CC)c(=O)[nH]c1=O | IIIB | - | MTT | 0.6 µM
Nc1nc(N2CCCCC2)c2ncn(CCOCP(=O)(O)O)c2n1 | IIIB | - | cytopathic effect / MTT | 3 µg/mL
OC(/C=C/c1ccc(Cl)c(Cl)c1)/C=C/c1ccc(Cl)c(Cl)c1 | - | - | cytopathic effect / MTT | >121 µM
C#CCNC(=O)CSc1cnc(Nc2ccc(C#N)cc2)nc1Oc1c(C)cc(C#N)cc1C | - | E138K | MTT | 0.0071 µM
COc1ccc(-n2c(=O)c(O)c3n(c2=O)CCN(Cc2ccc(F)cc2)C3=O)cc1 | - | - | p24 | <10 µM
CCc1cn([C@H]2C[C@H](N=[N+]=[N-])[C@@H](CO)O2)c(=O)[nH]c1=O | - | - | cytopathic effect | 64 µM
CC(C)[C@H](NC(=O)OC(C)(C)C)C(=O)NC(Sc1ccccc1)C(O)C(NC(=O)[C@@H](NC(=O)OC(C)(C)C)C(C)C)Sc1ccccc1 | LAV | - | syncytia | >100 µM
Cc1cc(C#N)cc(C)c1Oc1nc(Nc2ccc(C#N)cc2)ncc1SCC(N)=O | - | K103N | MTT | 0.0218 µM
COc1cc(Cc2[nH]c(=S)[nH]c(=O)c2C(C)C)cc(OC)c1 | IIIB | Efavirenz-resistant (K103R + V179D + P225H) | MTT | >100 µM
O=C1c2c(O)c(=O)n(Cc3cscn3)c(=O)n2CCN1Cc1ccc(F)cc1 | - | - | p24 | <10 µM
Nc1nc(N2CCCC2)c2ncn(CCOCP(=O)(O)O)c2n1 | IIIB | - | cytopathic effect / MTT | 1.88 µg/mL
COCCNC(=O)CSc1cnc(Nc2ccc(C#N)cc2)nc1Oc1c(C)cc(C#N)cc1C | - | F227L V106A | MTT | 0.1535 µM
O=C1c2c(O)c(=O)n(C3CCCC3)c(=O)n2CCN1Cc1ccc(F)cc1 | - | - | p24 | <10 µM
O=C1Nc2ccc(Cl)cc2[C@@](C#CC2CC2)(C(F)(F)F)O1 | - | E138K | MTT | 0.0065 µM
CCc1c(Cc2cc(C)cc(C)c2)n(Cc2ccc(I)cc2)c(=O)[nH]c1=O | - | - | MTT | 0.06 µM
CCc1c(Sc2cc(C)cc(C)c2)n(Cc2ccncc2)c(=O)[nH]c1=O | - | - | cytopathic effect / MTT | 0.004 µg/mL
CCc1c(Cc2cc(C)cc(C)c2)n(COCC#Cc2cc(C(F)(F)F)cc(C(F)(F)F)c2)c(=O)[nH]c1=O | IIIB | Y181C | MTT | 60 µM
CN(C)c1nc(N)nc2c1ncn2CCOCP(=O)(O)O | IIIB | - | cytopathic effect / MTT | 0.4 µg/mL
Cc1nc2c(c(C)c(C)n2CCC(C)C)c(-c2ccc(Cl)cc2)c1C(OC(C)(C)C)C(=O)O | IIIB | - | MTT | 0.153 µM
COc1cc(Cc2[nH]c(=O)[nH]c(=O)c2C(C)C)cc(OC)c1 | IIIB | - | MTT | >100 µM
O=C(CC1Nc2ccccc2S(=O)(=O)n2cccc21)OCc1ccc(Cl)cc1 | IIIB | - | MTT | 24 µM
Cc1nc2c(c(C)c(C)n2CC2CCCCC2)c(-c2ccc(Cl)cc2)c1[C@H](OC(C)(C)C)C(=O)O | IIIB | - | MTT | 0.1448 µM
Cc1cn([C@H]2C[C@H](N=[N+]=[N-])C([C@@H](O)CO)O2)c(=O)[nH]c1=O | IIIB | - | cytopathic effect / trypan blue | >200 µg/mL
O=C1c2c(O)c(=O)n(-c3ccc(N4CCCCC4)cc3)c(=O)n2CCN1Cc1ccc(F)cc1 | - | - | p24 | <10 µM
CN1C/C(=C\c2ccc(O)c(O)c2)C(=O)/C(=C/c2ccc(O)c(O)c2)C1 | - | - | cytopathic effect / MTT | >5 µM
CC(=O)c1ccc(C)cc1NC(C(N)=O)c1c(Cl)cccc1Cl | NDK | - | cytopathic effect / MTT | 0.022 µM
CC(=O)OCc1cc(Cn2c(C(=O)c3cc(C)cc(Cl)c3)c(C(C)C)c(=O)[nH]c2=O)cc(C)n1 | - | - | cytopathic effect / MTT | 0.0134 µg/mL
C=CCOCn1c(Cc2ccccc2)c(CF)c(=O)[nH]c1=O | Clinical isolates | Y181C | MTT | >100 µM
CCOC(=O)C1c2cccn2N(C)c2ccccc2N1C(=O)CCl | IIIB | - | MTT | >6.3 µM
CCc1c(C(=O)c2cc(C)cc(C)c2)n(Cc2ccccc2)c(=O)[nH]c1=O | - | - | cytopathic effect / MTT | 0.003 µg/mL
NC(=O)[C@H](Nc1ccccc1[N+](=O)[O-])c1c(Cl)cccc1Cl | IIIB | - | cytopathic effect / MTT | 1.7 µM
C=C(C)COCn1c(Cc2ccccc2)c(CF)c(=O)[nH]c1=O | - | - | MTT | >20 µM
Nc1ncnc2c1ncn2[C@H]1CC[C@@H](CO)O1 | - | - | cytopathic effect | 6 µM
Cc1cc(C#N)cc(C)c1Oc1nc(Nc2ccc(C#N)cc2)ncc1SCC(=O)NC1CCN(C(=O)OC(C)(C)C)CC1 | - | L100I | MTT | 0.0553 µM
CCc1c(Cc2cc(C)cc(C)c2)n(COCC#Cc2cccc(CO[Si](c3ccccc3)(c3ccccc3)C(C)(C)C)c2)c(=O)[nH]c1=O | IIIB | EFV-resistant (K103R V179D P225H) | MTT | >100 µM
CCOC(=O)N(Cc1ccccc1)CC(O)C(Sc1ccccc1)N(Cc1ccccc1)C(=O)OCC | LAV | - | syncytia | >50 µM
CCc1c(Cc2cc(C)cc(C)c2)n(Cc2ccc(C#CCO)cc2)c(=O)[nH]c1=O | IIIB | EFV:K103R+V179D+P225H | MTT | >2 µM
Cc1cccc(N2C(=O)CSC2c2c(F)cccc2F)c1 | IIIB | - | cytopathic effect | 0.688 µM
CCOCn1c(Cc2ccccc2)c(C(C)C)c(=O)[nH]c1=O | IIIB | - | MTT | 0.03 µM
COc1cccc(OC)c1C1SCC(=O)N1c1cccc(C)n1 | IIIB | - | cytopathic effect | 1.36 µM
CCSCCn1c(=O)c(O)c2n(c1=O)CCN(Cc1ccc(F)cc1)C2=O | - | - | p24 | <10 µM
CC(C)(C)OC(=O)N(Cc1ccccc1)CC(O)C(Sc1ccccc1)N(Cc1ccccc1)C(=O)OC(C)(C)C | LAV | - | syncytia | 0.1–1 µM
CCc1c(Cc2cc(Cl)cc(Cl)c2)n(COC/C(C)=C/c2ccccc2)c(=O)[nH]c1=O | NNRTI-resistant (RT K103N Y181C) A17 | RT-K103N Y181C | cytopathic effect / MTT | >10 µM
Cc1cccc(C)c1C1SCC(=O)N1c1cccc(Br)n1 | IIIB | - | cytopathic effect | 6.33 µM
Cc1cc(C#N)cc(C)c1Oc1nc(Nc2ccc(C#N)cc2)ncc1SCC(=O)NC1CC1 | - | RES056 | MTT | 0.1165 µM
Cc1cn([C@H]2C[C@H](N=[N+]=[N-])[C@@H]([C@H](C)O)O2)c(=O)[nH]c1=O | IIIB | - | cytopathic effect / trypan blue | >200 µg/mL
Cc1cc(F)cc(C(=O)c2c(C(C)C)c(=O)[nH]c(=O)n2Cc2ccncc2)c1 | - | - | cytopathic effect / MTT | 0.0034 µg/mL
O=C1/C(=C/c2cc(O)c(O)c(O)c2)CC/C1=C\c1cc(O)c(O)c(O)c1 | - | - | cytopathic effect / MTT | 60 µM
CCc1c(Cc2cc(C)cc(C)c2)n(COCC#Cc2cccc(O[Si](c3ccccc3)(c3ccccc3)C(C)(C)C)c2)c(=O)[nH]c1=O | IIIB | K103N + Y181C | MTT | 6 µM
CC(C)[C@H](NC(=O)N(C)c1ccccc1)C(=O)NC(Sc1ccccc1)C(O)C(NC(=O)[C@@H](NC(=O)N(C)c1ccccc1)C(C)C)Sc1ccccc1 | LAV | - | syncytia | >10 µM

6 of the rows above, restated:

| SMILES | strain or isolate | changes | method | result |
|---|---|---|---|---|
| CCc1c(Cc2ccccc2C)n(COCC#Cc2cccc3ccccc23)c(=O)[nH]c1=O | IIIB | EFV-resistant (K103R V179D P225H) | MTT | >34 µM |
| Cc1nc2c(c(C)c(C)n2Cc2cccnc2F)c(-c2ccc(Cl)cc2)c1[C@H](OC(C)(C)C)C(=O)O | IIIB | - | MTT | 0.00549 µM |
| CC(=O)c1ccc(C)cc1NC(C(N)=O)c1c(Cl)cccc1Cl | NDK | - | cytopathic effect / MTT | 0.022 µM |
| Cc1nc2c(c(C)c(C)n2CC2CC2)c(-c2ccc(Cl)cc2)c1[C@@H](OC(C)(C)C)C(=O)O | IIIB | - | MTT | >100 µM |
| O=C1/C(=C/c2cc(O)c(O)c(O)c2)CC/C1=C\c1cc(O)c(O)c(O)c1 | - | - | cytopathic effect / MTT | 60 µM |
| C#CCNC(=O)CSc1cnc(Nc2ccc(C#N)cc2)nc1Oc1c(C)cc(C#N)cc1C | - | E138K | MTT | 0.0071 µM |